Reference: the supplement of paper PMC9931576
Human monoclonal antibodies against the spike receptor-binding domain (heavy:light variable regions). IC50 against pseudoviruses bearing the spike of naturally observed variants; lower = stronger; >10 µg/ml means not reached at the top dose. No active / inactive call. The stated detection limit is 0.0005 µg/ml; values near or below 0.001 µg/ml lie at the floor of the assay.

B1: BD56-668 (protein)
chain 1: EVQLVESGGGLVQPGGSLRLSCAASGFTFSSYDMHWVRQATGQGLEWVSTIGTDGDTYYADSVKGRFTISRENAKNSLFLQMNSLRAGDTAVYYCARVNYDSSGYYWYFDLWGRGTLVTVSS
chain 2: DIQMTQSPSSLSASVGDSVTITCRASQSISRYLNWYQQRPGQAPKFLIYAASNLQSGVPSRFRGSGSGTDFTLTISSLQPEDFATYYCQQSYSAPPWTFGQGTKVAMK
B2: BD56-665 (protein)
chain 1: LVESGGGVVQPGRSLRLSCATSGFPFSKYGMHWVRQAPGKGLEWVALEYYDGSNKYYADSVKGRFSVSRDNSKNTLYLQMNTLRPEDTAVYYCAKGGLYSSSWFGDYWGQGTLVIVSS
chain 2: DIQMTQSPSSLSASVGDRVTITCQASQDINYYLNWYQQKPGKAPKLLIYDASSLEAGVTSRYSGSGSGTDFTFTISSLQPEDIATYYCQQYDNVPPYTFGQGTKLEIK
B3: BD56-653 (protein)
chain 1: QVQLVQSGAEVKKPGASVKVSCKASGFTFSNYYVHWVRQAPGQGLEWLGLSNPSGGSSSYAQRFQGRVTVTRDTSTSTVYMELNSLTSEDTAVYFCARDEVGGYDAFDIWGQGTMVSVS
chain 2: SSVLTQPPSVSVAPGKTARITCGGDNIGGTSVHWYQQKPGQAPVLVVFDDSDRPSGIPERFSGSNSGNTATLTISRVEAGDEADYYCQVWDSISDQSYVFGTGTKVTVL
B4: BD56-664 (protein)
chain 1: EVQLVESGGGLVQPGRSLRLSCAASGFSFDNYGIHWVRQPPGKGLEWVAGISWNSNSVAYADSVKGRFTISRDNAKNSLYLQMNSLRPEDTAFYYCAKDIRPSYGDYFDYWGQGTLVTVSS
chain 2: SYVLTQPPSVSVAPGKTARISCGGNDIGSKGVHWYQQKPGQAPVLVIFYDNDRPSGIPERFSGSNSGNTATLTISRVEAGDEADYYCQVWGASSDHPYVFGTGTKVSVL
B5: BD56-654 (protein)
chain 1: EVQLVQSGAEVKKPGESLKISCKGSGYKFSSYWIGWVRQMPGKGLDWMGAIYPSDSDARYSPSFQGQVIMSVDKSISTAYLQWSSLKASDTALYYCTSQAWVCNGSNCYEYFQHWGQGTLVTVSS
chain 2: EIVLTQSPAILSLSPGERATLSCRASQSVSSHLAWYQQKLGQAPRLLIYDASNRAPGIPARFSGSGSGTDFTLTISSLEPEDFAVYYCLQRTNWPLFTFGPGTKLDIK
B6: BD56-666 (protein)
chain 1: QVQLVQSGAEVKKPGASVKISCKASGYTFSTYYMHWVRQAPGQGLEWMGIIYPSGGNTRYAQKFQGRVTMTRDTSTSTVYMELRNLRSEDTAVYYCAREVPPPLGNTWFDPWGQGTLVTVSS
chain 2: SYVLTQPSSVSVAPGKTARITCGGNDIGSKSVHWYQQKPGQAPVLVVYDDTDRPSGIPERFSGSNSGNTATLTISRVEAGDEADYYCQVWDGSGEPVVFGGGTKLSVL
B7: BD56-660 (protein)
chain 1: QVTLRETGPALVKPTQTLTLTCTFSGFSLSTPGVCVSWIRQPPGKALEWLARIDWDDDKNYNTSLKTRLTISKDTSKNQVVLTMTNMDPVDTATYYCARIVIGGSDHPPAGFDYWGQGTLVTVSS
chain 2: DIQMTQSPSSLSAAVGDRVTITCRTSESIDNYLNWYQQKPGKAPKLLIYTASSLQSGVPSRFSGSGSGTDFTLTISSLQPEDFATYYCQQSFSPLYTFGQGTKLDVK

These binders were tested against SARS-CoV-2 Omicron BA.1 spike pseudovirus (assay: pseudovirus neutralization IC50; higher = weaker neutralization).
Experimental: (§1)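 Single-round VSV luciferase pseudovirus mixed with antibody dilutions for 1 h and put on Huh-7 cells for about a day; IC50 from the dose curve.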
In the case of B1, the “pseudovirus neutralization IC50” value is reported as over 10 µg/mL. For B2, the “pseudovirus neutralization IC50” value was 8.01 µg/mL. For B3, the “pseudovirus neutralization IC50” value was over 10 µg/mL. For B4, the “pseudovirus neutralization IC50” value was over 10 µg/mL. With B5 the “pseudovirus neutralization IC50” value was 1.87 µg/mL. In the case of B6, the “pseudovirus neutralization IC50” value is reported as 4.63 µg/mL. With B7 the “pseudovirus neutralization IC50” value was 0.001 µg/mL.

The binders below were run against SARS-CoV-2 Omicron BA.2 spike pseudovirus in the same assay as above.
Experimental: as §1
With B1 the “pseudovirus neutralization IC50” value was over 10 µg/mL. For B2, the “pseudovirus neutralization IC50” value was 6.53 µg/mL. In the case of B3, the “pseudovirus neutralization IC50” value is reported as over 10 µg/mL. In the case of B4, the “pseudovirus neutralization IC50” value is reported as over 10 µg/mL. With B5 the “pseudovirus neutralization IC50” value was 3.82 µg/mL. B6 was tested, and the “pseudovirus neutralization IC50” value was 7.56 µg/mL. With B7 the “pseudovirus neutralization IC50” value was 0.000994 µg/mL.

What follows are binders tested against SARS-CoV-2 Omicron BA.2.75 spike pseudovirus in the same assay as above.
Experimental: as §1
With B1 the “pseudovirus neutralization IC50” value was over 10 µg/mL. For B2, the “pseudovirus neutralization IC50” value was 4.53 µg/mL. B3 was tested, and the “pseudovirus neutralization IC50” value was over 10 µg/mL. For B4, the “pseudovirus neutralization IC50” value was over 10 µg/mL. With B5 the “pseudovirus neutralization IC50” value was 5.08 µg/mL. With B6 the “pseudovirus neutralization IC50” value was 3.78 µg/mL. For B7, the “pseudovirus neutralization IC50” value was 0.000479 µg/mL.

The binders below were run against SARS-CoV-2 Omicron BA.5 spike pseudovirus in the same assay as above.
Experimental: as §1
For B1, the “pseudovirus neutralization IC50” value was over 10 µg/mL. With B2 the “pseudovirus neutralization IC50” value was 6.99 µg/mL. In the case of B3, the “pseudovirus neutralization IC50” value is reported as over 10 µg/mL. With B4 the “pseudovirus neutralization IC50” value was over 10 µg/mL. In the case of B5, the “pseudovirus neutralization IC50” value is reported as 3.19 µg/mL. In the case of B6, the “pseudovirus neutralization IC50” value is reported as 4.3 µg/mL. For B7, the “pseudovirus neutralization IC50” value was 0.000922 µg/mL.

Each binder was assayed against SARS-CoV-2 Omicron BQ.1.1 spike pseudovirus in the same assay as above.
Experimental: as §1
In the case of B1, the “pseudovirus neutralization IC50” value is reported as over 10 µg/mL. In the case of B2, the “pseudovirus neutralization IC50” value is reported as over 10 µg/mL. For B3, the “pseudovirus neutralization IC50” value was over 10 µg/mL. In the case of B4, the “pseudovirus neutralization IC50” value is reported as over 10 µg/mL. B5 was tested, and the “pseudovirus neutralization IC50” value was over 10 µg/mL. For B6, the “pseudovirus neutralization IC50” value was 7.05 µg/mL. In the case of B7, the “pseudovirus neutralization IC50” value is reported as over 10 µg/mL.

What follows are binders tested against SARS-CoV-2 Omicron XBB spike pseudovirus in the same assay as above.
Experimental: as §1
For B1, the “pseudovirus neutralization IC50” value was over 10 µg/mL. For B2, the “pseudovirus neutralization IC50” value was over 10 µg/mL. With B3 the “pseudovirus neutralization IC50” value was over 10 µg/mL. B4 was tested, and the “pseudovirus neutralization IC50” value was over 10 µg/mL. For B5, the “pseudovirus neutralization IC50” value was 9.45 µg/mL. With B6 the “pseudovirus neutralization IC50” value was 6.62 µg/mL. In the case of B7, the “pseudovirus neutralization IC50” value is reported as over 10 µg/mL.

What follows are binders tested against SARS-CoV-2 early D614G spike pseudovirus in the same assay as above.
Experimental: as §1
In the case of B1, the “pseudovirus neutralization IC50” value is reported as 3.33 µg/mL. B2 was tested, and the “pseudovirus neutralization IC50” value was over 10 µg/mL. In the case of B3, the “pseudovirus neutralization IC50” value is reported as over 10 µg/mL. In the case of B4, the “pseudovirus neutralization IC50” value is reported as over 10 µg/mL. For B5, the “pseudovirus neutralization IC50” value was 7.07 µg/mL. For B6, the “pseudovirus neutralization IC50” value was 8.42 µg/mL. In the case of B7, the “pseudovirus neutralization IC50” value is reported as 0.369 µg/mL.
